Anti-infective test results gathered from many reports (values: NIAID ChemDB through PubChem).

All rows: growth or infection tests; agent: Toxoplasma gondii

A number after MIC or MFC names an inhibition level or a share of isolates. Blank or dashed fields: not listed here. Conditions beyond the fields shown may differ between rows. ECn: concentration that inhibits the pathogen or its effect by n%.

compound,cells,endpoint,strain,value
Cc1c2c(cc(=O)n1C)C(=O)c1cccc(O)c1C2=O,,EC50,,1.8 µg/mL
CC1(C)Cc2cccc(O)c2O1,THP-1,EC50,,0.0041 µM
CN1CCC(c2cc(-c3ccncc3)c(-c3ccc(F)cc3)[nH]2)CC1,,EC50,TG-PKG FLAG T761Q,5 µM
COC(=O)C1C=CNC2=C1C(=O)c1cccc(O)c1C2=O,,EC50,,2.47 µg/mL
N#Cc1ccc(C(=O)NC(=O)c2ccccc2O)cc1,Human foreskin fibroblasts,MIC90,,>10 µM
CC1(C)CC2=C(O1)C(=O)C=CC2=O,THP-1,EC50,,0.007 µM
CCOC(=O)c1cc2c(OC)ccc(OC)c2[nH]1,THP-1,EC50,RH,0.0011 µM
COc1ccc(OCc2ccccc2C(=O)NC(=S)Nc2c(Br)cccc2Br)cc1,Human foreskin fibroblasts (HFF),EC50,RH beta-gal,24 µM
COc1ccc(OC)c2c1ccn2CCNC(=O)OC(C)(C)C,THP-1,EC50,RH,0.0012 µM
CCn1cc(C(=O)O)c(=O)c2cnc(N3CCCC3)nc21,,EC50,,26 µg/mL
Cc1occc1C(=O)NC(=O)c1ccccc1O,Human foreskin fibroblasts,MIC50,,>1 µM
CCc1nc(N)nc(N)c1-c1ccc(Cl)cc1,,EC50,RH,0.04 µg/mL
O=C(NC(=O)c1ccc(Cl)cc1Cl)c1ccccc1O,Human foreskin fibroblasts,MIC90,,>1 µM
CCCCCCCCCCCCCCCCC1(C)SC(=O)C(Cc2ccccc2)=C1O,,EC50,RH,2.74 µM
CNC1[C@H]2CN(c3nc4c(cc3F)c(=O)c(C(=O)O)cn4-c3ccc(F)cc3F)C[C@@H]12,,EC50,,0.4 µg/mL
O=C1c2ccccc2C(=O)c2cc(=O)[nH]cc21,,EC50,,1.3 µg/mL
O=C1C(=O)c2ccccc2C(O)=C1C1CCC(c2ccc(Cl)cc2)CC1,,EC50,RH,0.02 µM
O=C(NC(=S)Nc1c(Br)cccc1Br)c1ccccc1COc1ccc(Cl)cc1,Human foreskin fibroblasts (HFF),EC50,RH beta-gal,100 µM
CC1(C)CC2=C(O1)C(=O)c1cc3ncsc3cc1C2=O,THP-1,EC50,,0.0009 µM
COC(=O)c1ccnc2c1C(=O)c1c(O)cccc1C2=O,,EC50,,1 µg/mL
O=C(NC(=S)Nc1cccc(Cl)c1)c1ccccc1COc1ccc(Cl)cc1,Human foreskin fibroblasts (HFF),EC50,RH beta-gal,83 µM
COC(=O)c1ccccc1C(=O)Nc1ccc(C(=O)NC(=O)c2ccccc2O)cc1,Human foreskin fibroblasts,MIC50,,>1 µM
Cc1nc(N)nc(N)c1C#CC1CCCC1,,MIC,,0.25 µg/mL
CCc1ccc(C(=O)NC(=O)c2ccccc2)cc1,Human foreskin fibroblasts,MIC50,,>0.25 µM
Cc1[nH]c(=O)c(C)c2c1C(=O)c1cccc(O)c1C2=O,,EC50,,1.56 µg/mL
CC1(C)CC2=C(O1)C(=O)C(Br)=CC2=O,THP-1,EC50,,0.001 µM
O=C(NC(=S)Nc1ccc(Cl)cc1)c1ccccc1COc1ccc(Cl)cc1,Human foreskin fibroblasts (HFF),EC50,RH beta-gal,7 µM
CCc1ccc(C(=O)N(C)C(=O)c2ccccc2O)cc1,Human foreskin fibroblasts,MIC50,,>1 µM
O=C1c2cc3ncsc3cc2C2=NCCn3ccc1c32,THP-1,EC50,RH,0.0027 µM
O=C(CCc1ccccc1)NC(=O)c1ccccc1O,Human foreskin fibroblasts,MIC50,,>0.25 µM
COc1c(N2C[C@@H]3C(N)[C@@H]3C2)c(F)cc2c(=O)c(C(=O)O)cn(C3CC3)c12,,EC50,,1.3 µg/mL
COc1ccc(OCc2ccccc2C(=O)NC(=S)Nc2ccc(Cl)cc2Cl)cc1,Human foreskin fibroblasts (HFF),EC50,RH beta-gal,31 µM
Cc1cnc2c(c1)C(=O)c1c(oc(C)c1C)C2=O,,EC50,,0.94 µg/mL
CCCC1(C/C=C(\C)CCC=C(C)C)C(=O)SC(C)C1=O,,EC50,RH,28.1 µM
Cc1ccnc(NS(=O)(=O)c2ccc(N)cc2)n1,,EC90,RH,229 µg/mL
CCC(C)C#Cc1c(C)nc(N)nc1N,,MIC,,0.1 µg/mL
COc1ccc(OC)c2c1ccn2CCN=[N+]=[N-],THP-1,EC50,RH,0.0034 µM
NC1[C@H]2CN(c3cc4c(cc3F)c(=O)c(C(=O)O)cn4-c3ccc(F)cc3F)C[C@@H]12,,EC50,,4.3 µg/mL
CCOc1cnc2c(c1C)C(=O)c1oc(C)cc1C2=O,,EC50,,0.98 µg/mL
Nc1ccc(S(=O)(=O)Nc2nccc(=O)[nH]2)cc1,,EC50,,>150 µg/mL
Cc1cc(NS(=O)(=O)c2ccc(N)cc2)no1,,EC50,RH,1.1 µg/mL
CCN(CC)c1ccc(C(=O)NS(=O)(=O)c2ccccc2OC)cc1,Human foreskin fibroblasts,MIC90,,>0.25 µM
COc1ccc(OC)c2c1ccn2CCBr,THP-1,EC50,RH,0.0021 µM

For reference, 6 entries again:

compound | cells | endpoint | strain | value
O=C(NC(=S)Nc1ccc(Cl)cc1)c1ccccc1COc1ccc(Cl)cc1 | Human foreskin fibroblasts (HFF) | EC50 | RH beta-gal | 7 µM
CCOC(=O)c1cc2c(OC)ccc(OC)c2[nH]1 | THP-1 | EC50 | RH | 0.0011 µM
COc1ccc(OCc2ccccc2C(=O)NC(=S)Nc2ccc(Cl)cc2Cl)cc1 | Human foreskin fibroblasts (HFF) | EC50 | RH beta-gal | 31 µM
O=C1C(=O)c2ccccc2C(O)=C1C1CCC(c2ccc(Cl)cc2)CC1 |  | EC50 | RH | 0.02 µM
COc1ccc(OC)c2c1ccn2CCNC(=O)OC(C)(C)C | THP-1 | EC50 | RH | 0.0012 µM
CNC1[C@H]2CN(c3nc4c(cc3F)c(=O)c(C(=O)O)cn4-c3ccc(F)cc3F)C[C@@H]12 |  | EC50 |  | 0.4 µg/mL